PubChem BioAssay AID624099 – ICCB-Longwood | 2012

Screen: 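Host factors E2 relies on to silence an HPV18 LCR reporter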 (primary screen)
Cell system: human C33A cervical carcinoma cells (HPV-negative) stably expressing BPV1 E2 and an HPV18 LCR luciferase reporter
Reagent: siRNA pool against human genes, 40 nM
Time to read-out: 72 h
Measurement: 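HPV18 LCR reporter light per well, converted to plate-wise z-scores that exclude control wells, and averaged over triplicate plates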
Reading the numbers: mean z-score and z-score: higher = stronger reporter signal, weaker E2 silencing
Active means: 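Mean z ≥ 2 together with z ≥ 2 in two or more of the three replicates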
This is a random part of about 21,000 reagents tested. 497 of them (2.4%) count as active. 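Higher z means weaker E2 silencing; only reporter increases were scored, and knock-downs that hurt cell survival may mask genuine repressor factors.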 Unmarked entries are inactive.

target,mean z-score,"z-score, replicate A","z-score, replicate B","z-score, replicate C"
FAM135A,0.47,0.25,0.67,0.49
KNSTRN,-0.89,-1.08,-0.9,-0.69
DSTN,0.91,0.72,0.92,1.07
LOC392152 (retired record),0.69,0.34,0.82,0.91
GLDN,-1.02,-1.09,-1.05,-0.91
NXPH1,-0.41,-0.37,-0.15,-0.7
WHAMM,1.63,1.45,1.82,1.63
NET1,0.4,0.62,0.35,0.23
TERB2,-0.61,-1.18,-0.64,-0.01
VAPB,0.98,1.08,0.86,1
PAPSS1,-0.39,-0.56,-0.32,-0.29
NPSR1,-0.87,-0.39,-1.34,-0.87
ZNF483,-0.88,-0.56,-1.02,-1.04
DEPDC1,0.68,0.52,1.04,0.47
USP36,-1.78,-1.56,-1.84,-1.95
LIPA,-0.3,-0.11,-0.85,0.07
OR4A15,-0.24,-0.39,0.23,-0.57
CDCP1,-0.24,-0.72,0.02,-0.03
GABRD,0.51,0.39,0.69,0.44
POU3F1,-1.18,-1.07,-1.2,-1.27
RPS6KA1,0.17,-0.63,0.66,0.49
SMTNL1,0.08,0.06,0.07,0.12
ACRV1,0.07,0.21,0.05,-0.06
ARMCX1,-0.87,-0.35,-1.06,-1.21
NCOR1,-0.42,-0.45,-0.5,-0.33
LAPTM5,0.78,0.88,0.9,0.54
BACH2,-0.82,-1.14,-0.54,-0.79
UBXN8,0.33,0.48,0.43,0.07
PSME1,-0.14,-0.3,-0.03,-0.09
MNT,-0.2,-0.22,-0.11,-0.28
INPP5E,-0.15,0.15,-0.16,-0.43
RMI2,0.71,0.75,0.39,1
DUSP22,-0.33,0.07,-0.46,-0.59
OR6A2,0.28,0.34,0.27,0.22
MYL2,-0.18,-0.46,-0.03,-0.03
QNG1,0.94,0.58,1.04,1.19
TMEM255A,-0.66,-0.7,-0.51,-0.78
IRF6,0.84,0.76,0.86,0.9
TDRD7,0.07,0.5,-0.34,0.04
LRRC2,-0.26,-0.45,-0.13,-0.18
PCDHB8,0.67,0.27,1.09,0.64
ARFGAP1,-0.43,-0.23,-0.58,-0.48
MRGPRX2,0.57,0.14,0.83,0.73
STRA8,0.98,1.12,1.16,0.67
ASL,0.17,0.09,0.18,0.25
NCLN,-0.66,-0.56,-0.71,-0.71
RAX2,-0.97,-0.76,-0.91,-1.24
HLA-DMA,0.07,0.03,-0.02,0.19
COX7C,-0.14,-0.24,0.08,-0.27
LINC00550,-1.89,-1.53,-1.94,-2.2
LINC00664,0.74,0.94,0.64,0.63
ADA2,1.61,1.72,1.65,1.46
NTMT1,0.8,0.86,0.86,0.69
TLDC2,-1.19,-1.4,-1.05,-1.1
B9D2,0.13,-0.06,-0.01,0.46
LMAN2,-1.09,-0.62,-1.23,-1.42
PSMD10,0.5,-0.32,1.12,0.71
ARL8A,-1.06,-0.88,-1.22,-1.08
ARPP19,-0.82,-0.87,-0.84,-0.74
PDE6B,0.71,0.84,0.47,0.82
FAM225B,-1.17,-1.4,-1,-1.12
PRORSD1P,0.32,0.07,0.41,0.46
FARSB,1,1.17,0.72,1.1
TRAF3IP2,0.27,0.47,0.14,0.19
ASPN,-0.19,-0.11,-0.28,-0.17
RPL6P20,-0.17,-0.46,-0.24,0.19
RNF114,-1.28,-1.17,-1.29,-1.37
PHB2,-0.79,-0.9,-0.81,-0.65
TBC1D21,0.2,0.41,0.21,-0.02
SEC23B,0.63,0.46,0.5,0.94
CENPBD2P,-1.85,-1.65,-1.96,-1.95
ALG1,-2.4,-2.34,-2.4,-2.46
SRI,-0.46,-0.18,-0.54,-0.66

A stretch taken from the entries so far, as a working copy:
target,mean z-score,"z-score, replicate A","z-score, replicate B","z-score, replicate C"
PRORSD1P,0.32,0.07,0.41,0.46
FARSB,1,1.17,0.72,1.1
TRAF3IP2,0.27,0.47,0.14,0.19
ASPN,-0.19,-0.11,-0.28,-0.17
